{"source": "BindingDB's records for doi:10.1111/j.1747-0285.2007.00617.x", "about": "(Burnham Institute For Medical Research, 2008)", "biological_target": "T1, Lethal factor (Bacillus anthracis, UniProt P15917)", "T1 sequence (P15917 whole entry)": "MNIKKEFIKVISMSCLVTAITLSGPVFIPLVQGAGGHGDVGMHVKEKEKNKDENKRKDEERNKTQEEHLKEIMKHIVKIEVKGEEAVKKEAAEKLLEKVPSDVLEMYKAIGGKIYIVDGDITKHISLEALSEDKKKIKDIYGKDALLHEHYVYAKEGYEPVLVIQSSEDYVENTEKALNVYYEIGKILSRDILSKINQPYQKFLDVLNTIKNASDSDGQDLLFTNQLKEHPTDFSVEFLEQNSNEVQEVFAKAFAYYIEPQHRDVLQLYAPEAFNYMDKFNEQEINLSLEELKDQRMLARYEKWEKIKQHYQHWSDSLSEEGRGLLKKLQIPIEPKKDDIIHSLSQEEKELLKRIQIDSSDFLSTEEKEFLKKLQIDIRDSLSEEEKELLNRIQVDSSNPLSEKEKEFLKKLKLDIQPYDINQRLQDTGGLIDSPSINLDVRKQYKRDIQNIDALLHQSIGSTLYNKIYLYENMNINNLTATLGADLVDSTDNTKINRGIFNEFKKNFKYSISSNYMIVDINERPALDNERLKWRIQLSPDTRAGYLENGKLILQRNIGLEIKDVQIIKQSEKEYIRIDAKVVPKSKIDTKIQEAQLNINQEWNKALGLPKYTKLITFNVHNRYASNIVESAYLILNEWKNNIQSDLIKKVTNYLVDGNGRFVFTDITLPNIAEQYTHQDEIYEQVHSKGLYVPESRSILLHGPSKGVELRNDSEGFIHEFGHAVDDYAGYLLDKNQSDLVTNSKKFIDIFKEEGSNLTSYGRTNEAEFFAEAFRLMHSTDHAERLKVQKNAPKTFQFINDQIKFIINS", "conditions": "pH 7.4; 25 °C", "data": [{"smiles": "O=C(O)CN1C(=O)/C(=C/c2cc(-c3ccc(Cl)cc3)on2)SC1=S", "note": "[2-[(5Z)-5-{[5-(4-chlorophenyl)-1,2-oxazol-3-yl]methylidene}-4-oxo-2-sulfanylidene-1,3-thiazolidin-3-yl]acetic acid]", "values": [{"measurement": "IC50", "value": 5.2, "unit": "µM"}]}]}
